Measurements reported in PubChem BioAssay AID1259414 (Drosophila RNAi Screening Center, 2018).

Screen: 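Genome-wide screen for host control of endosymbiont load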 (primary screen)
Cell system: Drosophila JW18 cells infected with Wolbachia
Reagent: long dsRNA against Drosophila genes, 0.25 µg dsRNA per well of a 384-well plate
Time to read-out: 5 days
Conditions: cells persistently infected with Wolbachia before knock-down; no added drug
Detection: 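Imaged fluorescence in situ signal for Wolbachia 23S rRNA per DAPI-counted host cell, given as a robust z-score within each plate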
Direction: Wolbachia per cell robust z: higher = more Wolbachia per host cell than the plate typical
Rule for the call: 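Active if absolute robust z reaches 1.5 in two or more of three replicates, leaving out multi- or no-target dsRNAs, genes unexpressed in JW18 and A1 wells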
The screen tested about 24,000 reagents; shown is a random part of those that have a named target and a result. Of all reagents, about 1,210 (5%) were called active. 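Inactive calls also include excluded dsRNAs with several or no targets, genes unexpressed in JW18, and well A1, regardless of score.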 Names joined by + are all predicted targets of the reagent.

Against CG5532 [DRSC04509], the entry reads Wolbachia per cell robust z, rep 1 = 1.08; Wolbachia per cell robust z, rep 2 = 0.233; Wolbachia per cell robust z, rep 3 = -0.649; inactive.
bab2 [DRSC08150] showed Wolbachia per cell robust z, rep 1 = 0.868; Wolbachia per cell robust z, rep 2 = 0.712; Wolbachia per cell robust z, rep 3 = 0.494; inactive.
Silencing of bab2 [DRSC26326] gave: Wolbachia per cell robust z, rep 1 = -1.4; Wolbachia per cell robust z, rep 2 = 0.366; Wolbachia per cell robust z, rep 3 = -0.305; inactive.
Depletion of CG31792 [DRSC02604] came out at: Wolbachia per cell robust z, rep 1 = 0.356; Wolbachia per cell robust z, rep 2 = 1.26; Wolbachia per cell robust z, rep 3 = -7.34; inactive.
Against CG11342 [DRSC08175] the deposit lists Wolbachia per cell robust z, rep 1 = -1.42; Wolbachia per cell robust z, rep 2 = -4.4; Wolbachia per cell robust z, rep 3 = 0.429; inactive.
CG11342 [DRSC26281] showed Wolbachia per cell robust z, rep 1 = -0.789; Wolbachia per cell robust z, rep 2 = 0.276; Wolbachia per cell robust z, rep 3 = 1.57; inactive.
Eno [DRSC00750] scored Wolbachia per cell robust z, rep 1 = 0.935; Wolbachia per cell robust z, rep 2 = 0.139; Wolbachia per cell robust z, rep 3 = 1.09; inactive.
For CG16965 [DRSC02547], the values are Wolbachia per cell robust z, rep 1 = 0.83; Wolbachia per cell robust z, rep 2 = -4.91; Wolbachia per cell robust z, rep 3 = 0.456; inactive.
Knock-down of CG12910 [DRSC06225] gave: Wolbachia per cell robust z, rep 1 = -1.1; Wolbachia per cell robust z, rep 2 = -1.34; Wolbachia per cell robust z, rep 3 = -5.43; inactive.
CG4281 [DRSC18521] scored Wolbachia per cell robust z, rep 1 = 1.54; Wolbachia per cell robust z, rep 2 = 1.61; Wolbachia per cell robust z, rep 3 = 1.38; active.
Silencing of CG4281 [DRSC28415] came out at: Wolbachia per cell robust z, rep 1 = 0.178; Wolbachia per cell robust z, rep 2 = 0.842; Wolbachia per cell robust z, rep 3 = -0.468; inactive.
Against nvy [DRSC04705] the deposit lists Wolbachia per cell robust z, rep 1 = 0.722; Wolbachia per cell robust z, rep 2 = -0.537; Wolbachia per cell robust z, rep 3 = 0.768; inactive.
EMC10 [DRSC11850] scored Wolbachia per cell robust z, rep 1 = -0.06; Wolbachia per cell robust z, rep 2 = -0.0343; Wolbachia per cell robust z, rep 3 = -0.66; inactive.
Depletion of MAN1 [DRSC04342] resulted in: Wolbachia per cell robust z, rep 1 = -7.14; Wolbachia per cell robust z, rep 2 = 0.19; Wolbachia per cell robust z, rep 3 = -5.26; active.
Silencing of Snmp1 [DRSC16168] came out at: Wolbachia per cell robust z, rep 1 = 0.64; Wolbachia per cell robust z, rep 2 = -4.27; Wolbachia per cell robust z, rep 3 = -5.3; active.
phr + CG18853 [DRSC27486] gave Wolbachia per cell robust z, rep 1 = 0.794; Wolbachia per cell robust z, rep 2 = -0.815; Wolbachia per cell robust z, rep 3 = -6.21; inactive.
After knock-down of scpr-B + scpr-A + scpr-C [DRSC26639], the screen gave Wolbachia per cell robust z, rep 1 = -0.628; Wolbachia per cell robust z, rep 2 = 0.182; Wolbachia per cell robust z, rep 3 = 0.131; inactive.
Knock-down of Gr97a [DRSC13802] came out at: Wolbachia per cell robust z, rep 1 = 0.221; Wolbachia per cell robust z, rep 2 = 0.655; Wolbachia per cell robust z, rep 3 = 0.235; inactive.
After knock-down of CG1273 [DRSC08291], the record shows Wolbachia per cell robust z, rep 1 = -5.75; Wolbachia per cell robust z, rep 2 = 0.622; Wolbachia per cell robust z, rep 3 = -0.307; inactive.
Depletion of CG9263 [DRSC03176] came out at: Wolbachia per cell robust z, rep 1 = 0.961; Wolbachia per cell robust z, rep 2 = -0.573; Wolbachia per cell robust z, rep 3 = 0.0807; inactive.
Sras [DRSC11287] scored Wolbachia per cell robust z, rep 1 = -1.02; Wolbachia per cell robust z, rep 2 = -2.46; Wolbachia per cell robust z, rep 3 = 1.13; inactive.
Silencing of Uba5 [DRSC19775] gave: Wolbachia per cell robust z, rep 1 = 0.313; Wolbachia per cell robust z, rep 2 = 0.3; Wolbachia per cell robust z, rep 3 = -1.03; inactive.
For CG11396 [DRSC11654], the entry reads Wolbachia per cell robust z, rep 1 = 0.446; Wolbachia per cell robust z, rep 2 = -5.95; Wolbachia per cell robust z, rep 3 = 0.544; inactive.
After knock-down of CG12278 [DRSC14494], the record shows Wolbachia per cell robust z, rep 1 = 0.338; Wolbachia per cell robust z, rep 2 = -0.191; Wolbachia per cell robust z, rep 3 = -0.13; inactive.
For CG11562 [DRSC00316] the deposit lists Wolbachia per cell robust z, rep 1 = 0.22; Wolbachia per cell robust z, rep 2 = -0.0794; Wolbachia per cell robust z, rep 3 = -0.196; inactive.
Silencing of Nepl18 [DRSC14879] gave: Wolbachia per cell robust z, rep 1 = 0.35; Wolbachia per cell robust z, rep 2 = -0.266; Wolbachia per cell robust z, rep 3 = -0.816; inactive.
Knock-down of BCAS2 [DRSC15693] gave: Wolbachia per cell robust z, rep 1 = -0.431; Wolbachia per cell robust z, rep 2 = 0.0561; Wolbachia per cell robust z, rep 3 = -0.982; inactive.
With knock-down of BCAS2 [DRSC28064], the record shows Wolbachia per cell robust z, rep 1 = -0.611; Wolbachia per cell robust z, rep 2 = -0.0414; Wolbachia per cell robust z, rep 3 = -0.0483; inactive.
CG32457 [DRSC21722] gave Wolbachia per cell robust z, rep 1 = -1.29; Wolbachia per cell robust z, rep 2 = -1.03; Wolbachia per cell robust z, rep 3 = -0.868; inactive.
After knock-down of CG15403 [DRSC00417], the screen gave Wolbachia per cell robust z, rep 1 = 0.876; Wolbachia per cell robust z, rep 2 = -0.0252; Wolbachia per cell robust z, rep 3 = -0.599; inactive.

Just “Wolbachia per cell robust z, rep 1”, for 4 of the entries above:
CG31792 [DRSC02604]: 0.356
CG11342 [DRSC08175]: -1.42
CG11342 [DRSC26281]: -0.789
Eno [DRSC00750]: 0.935
